Measured values from several laboratories, pooled; numbers as filed in NIAID ChemDB.

Shared fields: tests in culture; agent: Cryptococcus neoformans; endpoint: MIC

Lines come from different laboratories, so protocols vary.

compound | strain or isolate | result
CC[C@H]1/C=C(\C)[C@H](O)[C@H](C)C[C@H](OC)[C@H]2O[C@@](O)(C(=O)C(=O)N3CCCC[C@H]3C(=O)O[C@H](/C(C)=C/[C@@H]3CC[C@@H](O)[C@H](OC)C3)[C@H](C)[C@@H](O)CC1=O)[C@H](C)C[C@@H]2OC | H99 ΔFRR1 mutant | >42 µg/mL
N#CC(C#N)C(CC(=O)c1ccccc1)c1ccc(Cl)cc1Cl | ATCC 32264 | >50 µg/mL
Cc1nc([N+]#N)c(C(=O)N2CCCC2)[nH]1 | L29 | 50 µg/mL
COc1cc(/C=C/C(=O)c2cc(OC)c(OC)c(OC)c2)cc(OC)c1OC | ATCC 32264 | >50 µg/mL
C(=C\c1ccccc1)/CN(Cc1cccc2ccccc12)n1cncn1 |  | >200 µM
C=CC[n+]1c2ccccc2cc2[nH]c3ccccc3c21 | ATCC 52657 | 31.2 µg/mL
COC(=O)C(C(=O)OC)C(CC(=O)c1ccccc1)c1ccccc1 | ATCC 32264 | >50 µg/mL
c1ccc(C[n+]2c3ccccc3cc3[nH]c4ccccc4c32)cc1 | ATCC 52657 | >250 µg/mL
O=C(O)C(Cc1cnc[nH]1)[NH][Sn]([c]1ccccc1)([c]1ccccc1)[c]1ccccc1 |  | <12.5 µg/mL
COc1cc(C(=O)CC(c2cc(OC)c(OC)c(OC)c2)C(C#N)C#N)cc(OC)c1OC | ATCC 32264 | >50 µg/mL
c1ccc(CCC[n+]2c3ccccc3cc3[nH]c4ccccc4c32)cc1 | ATCC 52657 | 15.6 µg/mL
[CH3][Sn]([CH3])([CH3])[NH]C(Cc1c[nH]c2ccccc12)C(=O)O |  | 50 µg/mL
c1ccc(CCCCC[n+]2c3ccccc3cc3[nH]c4ccccc4c32)cc1 | ATCC 52657 | 1.9 µg/mL
CC(C)(C)c1ccc(CN(Cc2cccc3ccccc23)N2C=NNC2)cc1 |  | >200 µM
N#[N+]c1nc(-c2ccc(F)cc2)[nH]c1C(=O)N1CCCC1 | L29 | 10 µg/mL
CO/C1=C\C(C)=C\[C@@H](C)[C@@H](O)[C@@H](C)C/C(C)=C/C=C/[C@H](OC)[C@@H]([C@@H](C)[C@@H](O)[C@H](C)[C@@]2(O)C[C@@H](O)[C@H](C)[C@@H](C(C)C)O2)OC1=O | H99 ΔCNA1 mutant | >62.2 µg/mL
O=C(/C=C/c1ccco1)c1ccc(Cl)cc1Cl | ATCC 32264 | >50 µg/mL
O=C(O)C(Cc1c[nH]c2ccccc12)[NH][Sn]([c]1ccccc1)([c]1ccccc1)[c]1ccccc1 |  | <12.5 µg/mL
CC(C)(C)c1ccc(CN(Cc2cccc3ccccc23)n2cnnc2)cc1 |  | >200 µM
N#[N+]c1nc(-c2ccccc2)[nH]c1C(=O)N1CCCC1 | L29 | 50 µg/mL
COc1ccc(C(=O)CC(c2ccc3ccccc3c2)C(C#N)C#N)c(OC)c1 | ATCC 32264 | >50 µg/mL
COc1cc(O)c2c(c1)C(=O)c1c(cc3c(c1O)-c1c(cc(C)c(C(=O)N[C@H](CO)C(=O)O)c1O)[C@H](O[C@@H]1O[C@H](C)[C@H](O)[C@H](O)[C@H]1O)[C@H]3O)C2=O | D49 | 1.6 µg/mL
COc1cc2cc(/C=C/C(=O)c3ccc(Br)cc3)c(Cl)nc2cc1OC | ATCC 32264 | >50 µg/mL
N#[N+]c1nc(-c2ccc(Cl)cc2Cl)[nH]c1C(=O)N1CCCC1 | L29 | 50 µg/mL
COC(=O)C(C(=O)OC)C(CC(=O)c1ccccc1)c1cccc(OC)c1OC | ATCC 32264 | >50 µg/mL
C=CCc1ccc(O)c(-c2cc(CC=C)ccc2O)c1 | KCTC 7224 | >200 µg/mL
COC(=O)C(C(=O)OC)C(CC(=O)c1ccccc1)c1ccc2ccccc2c1 | ATCC 32264 | >50 µg/mL
C=CC[C@@H]1/C=C(/C)C[C@H](C)C[C@H](OC)[C@H]2O[C@@](O)(C(=O)C(=O)N3CCCC[C@H]3C(=O)O[C@H](/C(C)=C/[C@@H]3CC[C@@H](O)[C@H](OC)C3)[C@H](C)[C@@H](O)CC1=O)[C@H](C)C[C@@H]2OC | H99 ΔCNA1 mutant | >25 µg/mL

A second listing of 3 rows from above:

| compound | strain or isolate | result |
|---|---|---|
| CC(C)(C)c1ccc(CN(Cc2cccc3ccccc23)N2C=NNC2)cc1 |  | >200 µM |
| CC[C@H]1/C=C(\C)[C@H](O)[C@H](C)C[C@H](OC)[C@H]2O[C@@](O)(C(=O)C(=O)N3CCCC[C@H]3C(=O)O[C@H](/C(C)=C/[C@@H]3CC[C@@H](O)[C@H](OC)C3)[C@H](C)[C@@H](O)CC1=O)[C@H](C)C[C@@H]2OC | H99 ΔFRR1 mutant | >42 µg/mL |
| COc1cc2cc(/C=C/C(=O)c3ccc(Br)cc3)c(Cl)nc2cc1OC | ATCC 32264 | >50 µg/mL |

Blank or dashed fields: not listed here.